Source: patent publication US5153181A, “Pharmaceutical compositions comprising organic polymers containing inorganic anionic groups and method of prophylaxis and treatment of retrovirus infections in mammals using said compositions” (priority 1986, dated 1992)

System: SR-D-associated reverse transcriptase
Type: biochemical
Conditions: FIGS. 1A and B

SMILES: O=C(O)P(=O)(O)O [foscarnet]
- Efficiency index 90% (inhibition derived from FIG. 1) (LD50/inhibitor concentration blocking 90% of the polymerase activity): 25
- Efficiency index 99% (inhibition derived from FIG. 1) (LD50/inhibitor concentration blocking 99% of the polymerase activity): 1
